Measured values from several laboratories, pooled; numbers as filed in NIAID ChemDB.

Shared fields: tests in culture; species: HIV-1; read-out: inhibition

Percent inhibition refers to the dose given; in toxicity tests it is the harm to the cells.

smiles,changes,strain,setting,cell line,method,tested at,value
CN1CCN(CCCN2c3ccccc3Sc3ccc(Cl)cc32)CC1,,LAV,,MT-4,,10 µg/mL,>96%
CCC[C@@]1(CCc2ccccc2)CC(O)=C([C@H](CC)c2cccc(NS(=O)(=O)c3ccc(C(F)(F)F)cn3)c2)C(=O)O1,,Isolate 301-6X ritonavir-resistant,,PBMC,p24,0.33 µM,90%
CC(c1cc(=O)[nH]c(SC2CCCC2)n1)c1c(F)cccc1F,,IIIB,,MT-4,p24,0.09 µM,99.9%
Nc1nc(Cl)nc2c1ncn2[C@H]1C=C[C@@H](CO)O1,,HXBc2,,C8166,RT activity,20 µM,75%
Cc1ccc(S(=O)(=O)N[C@@H](CCCCN)C(=O)CCl)cc1,,,,MT-4,XTT / p24,10 µg/mL,100%
O=C1N(Cc2ccc3ccccc3c2)[C@H](Cc2ccccc2)[C@H](O)[C@@H](O)[C@@H](Cc2ccccc2)N1C1CCCC1,,RF,,MT-2,hybridisation,0.66 µM,90%
CC(C)[C@H](NC(=O)c1ccccn1)C(=O)N[C@@H](Cc1ccccc1)[C@H](O)[C@H](O)[C@H](Cc1ccccc1)NC(=O)[C@@H](NC(=O)c1ccccn1)C(C)C,PR-G48V,NL4-3,,MT-4,p24,30 µM,90%
O=C(O)c1cc(O)c(O)c(O)c1,,IIIB,,MOLT-3,syncytia,10 µg/mL,75%
CC(C)(C)NCC(O)c1ccc(O)c(CO)c1,,LAV,,MT-4,,100 µg/mL,0%
Nc1ncnc2c1ncn2[C@H]1CC[C@@H](CO)O1,,IIIB,,MT-4,ELISA,10 µM,50%
CC(C)Sc1nc(Cc2c(F)cccc2F)cc(=O)[nH]1,,IIIB,,MT-4,p24,0.19 µM,99.9%
C=COCCN1C(=O)N(CCOC=C)[C@H](Cc2ccccc2)[C@H](O)[C@@H](O)[C@H]1Cc1ccccc1,,RF,,MT-2,hybridisation,107 µM,<90%
CCc1cc(NCc2nc3c(Cl)ccc(Cl)c3o2)c(=O)[nH]c1C,RT-P236L,HXBE30(RT-P236L),,MT-4,antigen,0.01 µM,100%
CCCCCCCCCCCCCC(=O)OC[C@@H](COP(=O)(O)OC[C@@H]1CC[C@H](n2cc(C)c(=O)[nH]c2=O)O1)OC(=O)CCCCCCCCCCCCC,,LAV-Bru,,CEM13 + CEM,ELISA,1 µM,50%
O=C1N(Cc2ccc(CO)cc2)[C@H](Cc2ccccc2)[C@H](O)[C@@H](O)[C@@H](Cc2ccccc2)N1Cc1ccc(CO)cc1,,Clinical isolate X,,PBMC,p24,0.29 µM,90%
CC[C@H](C)C(=O)O[C@H]1C[C@@H](C)C=C2C=C[C@H](C)[C@H](CC[C@@H]3C[C@@H](O)CC(=O)O3)[C@H]21,,NL4-3,,PBMC,p24,50 µM,20%
O=C(O)/C=C/c1ccc[c]([Sb](=[O])([OH])[OH])c1,,92US727 R5 clinical isolate,,MAGI,β-galactosidase,10 µM,55.5%
COC(=O)[C@@H]1C2CCC(C[C@@H]1OC(=O)c1ccccc1)N2C,,IIIB,,H9,p24,25 µg/mL,<0%
[Se],,LAV,,U1,RT activity,0.1 µg/mL,26%
CC(C)(C)NC(=O)[C@@H]1CN(Cc2cccnc2)CCN1C[C@@H](O)C[C@@H](Cc1ccccc1)C(=O)N[C@H]1c2ccccc2C[C@H]1O,,,,MAGI,β-galactosidase,5 µg/mL,10%
CC(C)=C1C=C(C(C)C)C(O)CC1,,IIIB,,Jurkat cells,p24,0.1 µM,33.3%
O=C1N(CC2CCCCC2)[C@H](Cc2ccccc2)[C@H](O)[C@@H](O)[C@@H](Cc2ccccc2)N1CC1CCCCC1,,RF,,MT-2,hybridisation,96 µM,<90%
COc1ccc(CN[C@@H](C(=O)N[C@H]2c3ccccc3C[C@H]2O)[C@H](O)[C@H](Cc2ccccc2)NC(=O)[C@@H](NC(=O)OCc2ccccc2)C(C)(C)C)cc1,,IIIB,,HuT-78 + HUT 78,p24,0.23 µM,90%
COc1cc(C[C@H](C)[C@H](C)Cc2ccc(O)c(O)c2)ccc1O,,VS,,PBMC,p24,25 µg/mL,95%
CCOCCN1C(=O)N(CCOCC)[C@H](Cc2ccccc2)[C@H](O)[C@@H](O)[C@H]1Cc1ccccc1,,RF,,MT-2,hybridisation,106 µM,<90%
NC12CC3CC(CC(C3)C1)C2,,LAV,,MT-4,,1 µg/mL,37%
CC(C)=CCc1cc(-c2oc3cc(O)cc(O)c3c(=O)c2O)ccc1O,,,,MOLT-4/OKM-1(HIV-1) + MOLT-4,syncytia,20 µg/mL,100%
CC(=O)O[C@H]1C[C@@]2(C)[C@@H](C[C@@H](O)[C@H]3[C@@]4(C)CC[C@@H](O)[C@@H](C)[C@@H]4CC[C@@]32C)/C1=C(\CCC=C(C)C)C(=O)O,,CBL-1,,C8166,syncytia,50 µg/mL,100%
Nc1cccc(CN2C(=O)N(Cc3cccc(N)c3)[C@H](Cc3ccccc3)[C@H](O)[C@@H](O)[C@H]2Cc2ccccc2)c1,PR-M46L V82V+I I84V+I,E (PR M46L V82V/I I84V/I),,MT-2,virus yield,0.912 µM,90%
CC(C)=CCC/C(C)=C/CC/C(C)=C/CCC(=O)OC/C=C(\C)CCC=C(C)C,,LAV,,MT-4,,100 µg/mL,0%
Cc1cn([C@H]2C[C@H](N=[N+]=[N-])[C@@H](CO)O2)c(=O)[nH]c1=O,,SF162,,Monocytes + Monocyte,p24 / ELISA,0.0034 µg/mL,90%
Nc1nc2c(ncn2[C@H]2CC[C@@H](CO)O2)c(=O)[nH]1,,LAV-Bru,,CEM13 + CEM,ELISA,10 µM,90%
CC(C)CN1C(=O)N(CC(C)C)[C@H](Cc2ccccc2)[C@H](O)[C@@H](O)[C@H]1Cc1ccccc1,,RF,,MT-2,hybridisation,100 µM,<90%
CCCC[NH+]1[C@@H]2C[C@H](OC(=O)[C@H](CO)c3ccccc3)CC[C@H]1[C@H]1O[C@H]12,,LAV,,MT-4,,100 µg/mL,0%
COCCNC(=O)[C@@H](NC(=O)[C@H](Cc1ccc(OC)c(OC)c1OC)C[C@H](O)[C@H](Cc1ccccc1)NC(=O)OC(C)(C)C)C(C)C,,MN,,MT-2,RT activity,0.03 µM,100%
CC1(C)Oc2ccc3ccc(=O)oc3c2[C@@H](OC(=O)C23CCC(C)(C(=O)O2)C3(C)C)[C@H]1OC(=O)C12CCC(C)(C(=O)O1)C2(C)C,,,17 d,Monocytes,p24,0.000016 µM,76%
O=C1CN=C(c2ccccc2)c2cc([N+](=O)[O-])ccc2N1,,LAV,,MT-4,,100 µg/mL,99.6%
c1cc(CN2CCCNCCNCCCNCC2)ccc1CN1CCCNCCNCCCNCC1,,92TH001 CLADE E R5,,PBMC,p24,0.1 µM,21%
Cc1ccc(-c2ccc3c(c2)C=C(C(=O)Nc2ccc(C[N+](C)(C)C4CCOCC4)cc2)CCC3)cc1,,HHA,,PBMC,p24,0.0075 µM,90%
COCCN1C(=O)N(CCOC)[C@H](Cc2ccccc2)[C@H](O)[C@@H](O)[C@H]1Cc1ccccc1,,RF,,MT-2,hybridisation,114 µM,<90%
COc1cc(O)c2c(=O)oc3cc(O)cc(C)c3c2c1,,NL4-3,3 d,PBMC,p24 / ELISA,35 µM,66%
CCN1C(=O)N(CC)[C@H](Cc2ccccc2)[C@H](O)[C@@H](O)[C@H]1Cc1ccccc1,,RF,,MT-2,hybridisation,132 µM,<90%
CC[C@H]1[C@@H]2C[C@H]3[C@@H]4N(C)c5ccccc5[C@]45C[C@@H]([C@@H]2[C@H]5O)N3[C@@H]1O,,LAV,,MT-4,,10 µg/mL,0%
C/C1=C\C=C(\C(C)C)[C@@H](O)C/C(C)=C/CC/C(C)=C/CC1,,IIIB,,Jurkat cells,p24,0.1 µM,20%
CC(C)=CCc1cc(-c2coc3cc(O)cc(O)c3c2=O)cc(O)c1O,,,,MOLT-4/OKM-1(HIV-1) + MOLT-4,syncytia,20 µg/mL,100%
O=c1cc(Cc2c(F)cccc2F)nc(SC2CCCC2)[nH]1,,IIIB,,MT-4,p24,0.3 µM,99.9%
COc1ccc(CN[C@@H](C(=O)N[C@H](C(=O)NCc2nc3ccccc3[nH]2)C(C)C)[C@H](O)[C@H](Cc2ccccc2)NC(=O)[C@@H](NC(=O)OCc2ccccc2)C(C)(C)C)cc1,,BaL,,Monocytes + Monocyte,p24,0.021 µM,90%
NS(=O)(=O)c1cc2c(cc1Cl)NC(C(Cl)Cl)NS2(=O)=O,,LAV,,MT-4,,100 µg/mL,0%
Cc1cn([C@H]2CC[C@@H](CO)O2)c(=O)[nH]c1=O,,LAV-Bru,,CEM13 + CEM,ELISA,10 µM,50%

For reference, 5 entries again:

smiles	changes	strain	setting	cell line	method	tested at	value
CC(=O)O[C@H]1C[C@@]2(C)[C@@H](C[C@@H](O)[C@H]3[C@@]4(C)CC[C@@H](O)[C@@H](C)[C@@H]4CC[C@@]32C)/C1=C(\CCC=C(C)C)C(=O)O		CBL-1		C8166	syncytia	50 µg/mL	100%
COCCNC(=O)[C@@H](NC(=O)[C@H](Cc1ccc(OC)c(OC)c1OC)C[C@H](O)[C@H](Cc1ccccc1)NC(=O)OC(C)(C)C)C(C)C		MN		MT-2	RT activity	0.03 µM	100%
COc1ccc(CN[C@@H](C(=O)N[C@H]2c3ccccc3C[C@H]2O)[C@H](O)[C@H](Cc2ccccc2)NC(=O)[C@@H](NC(=O)OCc2ccccc2)C(C)(C)C)cc1		IIIB		HuT-78 + HUT 78	p24	0.23 µM	90%
CCN1C(=O)N(CC)[C@H](Cc2ccccc2)[C@H](O)[C@@H](O)[C@H]1Cc1ccccc1		RF		MT-2	hybridisation	132 µM	<90%
Cc1ccc(-c2ccc3c(c2)C=C(C(=O)Nc2ccc(C[N+](C)(C)C4CCOCC4)cc2)CCC3)cc1		HHA		PBMC	p24	0.0075 µM	90%

Conditions beyond the fields shown may differ between rows. Blank or dashed fields: not listed here.